Measured values from several laboratories, pooled; numbers as filed in NIAID ChemDB.

Common to all: tests in culture; agent: Mycobacterium avium intracellulare; measure: MIC

Neighbouring rows are from separate reports.

| compound | strain or isolate | result |
|---|---|---|
| C[C@@H]1CN(c2c(F)c(N)c3c(=O)c(C(=O)O)cn(C4CC4)c3c2F)C[C@H](C)N1 | N-809 (HIV-) | 2 µg/mL |
| CO[C@H]1/C=C/O[C@@]2(C)Oc3c(C)c(O)c4c(O)c(c(/C=N/N5CCN(C6CCCC6)CC5)c(O)c4c3C2=O)NC(=O)/C(C)=C\C=C\[C@H](C)[C@H](O)[C@@H](C)[C@@H](O)[C@@H](C)[C@H](OC(C)=O)[C@@H]1C | 12-Feb | 0.5 µg/mL |
| CC[C@H]1OC(=O)[C@H](C)[C@@H](O[C@H]2C[C@@](C)(OC)[C@@H](OC(C)=O)[C@H](C)O2)[C@H](C)[C@@H](O[C@@H]2O[C@H](C)C[C@H](N(C)C)[C@H]2O)C(C)(O)C[C@@H](C)/C(=N\OCCC2CCCCC2)[C@H](C)[C@@H](O)[C@]1(C)O | 20066 (clarithromycin-susceptible) | 3.13 µg/mL |
| Cc1onc(-c2ccccc2Cl)c1C(=O)N[C@@H]1C(=O)N2[C@@H]1SC(C)(C)[C@@H]2C(=O)O | CIPT 140310023 | 50 µg/mL |
| CCCCCNC(=O)O[C@H]1C(O[C@@H]2[C@@H](C)[C@H](O[C@H]3C[C@@](C)(OC)[C@@H](OC(C)=O)[C@H](C)O3)[C@@H](C)C(=O)O[C@H](CC)[C@@](C)(O)[C@H](O)[C@@H](C)/C(=N/OCCCC3CCCCC3)[C@H](C)CC2(C)O)O[C@H](C)C[C@@H]1N(C)C | 20075 | 0.2 µg/mL |
| CO[C@H]1/C=C/O[C@@]2(C)Oc3c(C)c(O)c4c(O)c(c5c(c4c3C2=O)NC2(CCN(CC(C)C)CC2)N=5)=NC(=O)/C(C)=C\C=C\[C@H](C)[C@H](O)[C@@H](C)[C@@H](O)[C@@H](C)[C@H](OC(C)=O)[C@@H]1C | N-551 (HIV-) | 0.125 µg/mL |
| CC[C@H]1OC(=O)[C@H](C)[C@@H](O[C@H]2C[C@@](C)(OC)[C@@H](OC(C)=O)[C@H](C)O2)[C@H](C)[C@@H](O[C@@H]2O[C@H](C)C[C@H](N(C)C)[C@H]2O)C(C)(O)C[C@@H](C)/C(=N\OCCN(C)c2ccccc2)[C@H](C)[C@@H](O)[C@]1(C)O | 20066 (clarithromycin-susceptible) | 3.13 µg/mL |
| NNC(=O)c1ccncc1 | N-551 (HIV-) | 2 µg/mL |
| CN[C@@H]1[C@H](O[C@H]2[C@H](O[C@H]3[C@H](O)[C@@H](O)[C@H](N=C(N)N)[C@@H](O)[C@@H]3N=C(N)N)O[C@@H](C)[C@]2(O)C=O)O[C@@H](CO)[C@H](O)[C@H]1O | CIPT 140310023 | >50 µg/mL |
| CC[C@H]1OC(=O)[C@H](C)[C@@H](O[C@H]2C[C@@](C)(OC)[C@@H](OC(C)=O)[C@H](C)O2)[C@H](C)[C@@H](O[C@@H]2O[C@H](C)C[C@H](N(C)C)[C@H]2OC(=O)NNCc2ccccn2)C(C)(O)C[C@@H](C)/C(=N\OCCCC2CCCCC2)[C@H](C)[C@@H](O)[C@]1(C)O | 20066 (clarithromycin-susceptible) | 0.78 µg/mL |
| C#CCNC(=O)O[C@H]1C(O[C@@H]2[C@@H](C)[C@H](O[C@H]3C[C@@](C)(OC)[C@@H](OC(C)=O)[C@H](C)O3)[C@@H](C)C(=O)O[C@H](CC)[C@@](C)(O)[C@H](O)[C@@H](C)/C(=N/OCCCC3CCCCC3)[C@H](C)CC2(C)O)O[C@H](C)C[C@@H]1N(C)C | 20075 | 0.2 µg/mL |
| CC[C@H]1OC(=O)[C@H](C)[C@@H](O[C@H]2C[C@@](C)(OC)[C@@H](OC(C)=O)[C@H](C)O2)[C@H](C)[C@@H](O[C@@H]2O[C@H](C)C[C@H](N(C)C)[C@H]2OC(=O)NNCc2ccc([N+](=O)[O-])cc2)C(C)(O)C[C@@H](C)/C(=N\OCCCC2CCCCC2)[C@H](C)[C@@H](O)[C@]1(C)O | 20066 (clarithromycin-susceptible) | 0.78 µg/mL |
| CO[C@H]1/C=C/O[C@@]2(C)Oc3c(C)c(O)c4c(O)c(c5c(c4c3C2=O)NC2(CCN(CC(C)C)CC2)N=5)=NC(=O)/C(C)=C\C=C\[C@H](C)[C@H](O)[C@@H](C)[C@@H](O)[C@@H](C)[C@H](OC(C)=O)[C@@H]1C | CIPT 140310054 | 0.05 µg/mL |
| CC[C@H]1OC(=O)[C@H](C)[C@@H](OC(=O)Cc2ccccc2)[C@H](C)[C@@H](O[C@@H]2O[C@H](C)C[C@H](N(C)C)[C@H]2O)C(C)(O)C[C@@H](C)/C(=N\OCCCOc2ccccc2)[C@H](C)[C@@H](O)[C@]1(C)O | 20066 (clarithromycin-susceptible) | 3.13 µg/mL |
| CC(C)N=c1cc2n(-c3ccc(Cl)cc3)c3ccccc3nc-2cc1Nc1ccc(Cl)cc1 | 99241 | 2 µg/mL |
| CCCC(=O)O[C@H]1[C@H](C)[C@@H](O[C@@H]2O[C@H](C)C[C@H](N(C)C)[C@H]2O)C(C)(O)C[C@@H](C)/C(=N\OCCCOc2ccccc2)[C@H](C)[C@@H](O)[C@](C)(O)[C@@H](CC)OC(=O)[C@@H]1C | 20066 (clarithromycin-susceptible) | 6.25 µg/mL |
| CC[C@H]1OC(=O)[C@H](C)[C@@H](O[C@H]2C[C@@](C)(OC)[C@@H](OC(C)=O)[C@H](C)O2)[C@H](C)[C@@H](OC2O[C@H](C)C[C@H](N(C)C)[C@H]2OC(N)=O)C(C)(O)C[C@@H](C)/C(=N\OCCCC2CCCCC2)[C@H](C)[C@@H](O)[C@]1(C)O | 20073 | 1.56 µg/mL |
| CO[C@H]1/C=C/O[C@@]2(C)Oc3c(C)c(O)c4c(=O)c(c5oc6cc(N7CCN(CC(C)C)CC7)cc(=O)c6nc5c4c3=C2O)NC(=O)/C(C)=C\C=C\[C@H](C)[C@H](O)[C@@H](C)[C@@H](O)[C@@H](C)[C@H](OC(C)=O)[C@@H]1C | N-551 (HIV-) | 0.0313 µg/mL |
| CC[C@H]1OC(=O)[C@H](C)[C@@H](O[C@H]2C[C@@](C)(OC)[C@@H](OC(C)=O)[C@H](C)O2)[C@H](C)[C@@H](OC2O[C@H](C)C[C@H](N(C)C)[C@H]2OC(=O)NCCCCCCCCCCCCCCN(C)C)C(C)(O)C[C@@H](C)/C(=N\OCCCC2CCCCC2)[C@H](C)[C@@H](O)[C@]1(C)O | 20075 | 0.78 µg/mL |
| CC1(C)S[C@@H]2[C@H](NC(=O)[C@H](C(=O)[O-])c3ccsc3)C(=O)N2[C@H]1C(=O)[O-].[Na+].[Na+] | CIPT 140310023 | 50 µg/mL |
| CC[C@H]1OC(=O)[C@H](C)[C@@H](O[C@H]2C[C@@](C)(OC)[C@@H](OC(C)=O)[C@H](C)O2)[C@H](C)[C@@H](O[C@@H]2O[C@H](C)C[C@H](N(C)C)[C@H]2OC(=O)NNCc2ccncc2)C(C)(O)C[C@@H](C)/C(=N\OCCCC2CCCCC2)[C@H](C)[C@@H](O)[C@]1(C)O | 20066 (clarithromycin-susceptible) | 1.56 µg/mL |
| CC[C@H]1OC(=O)[C@H](C)[C@@H](O[C@H]2C[C@@](C)(OC)[C@@H](OC(C)=O)[C@H](C)O2)[C@H](C)[C@@H](OC2O[C@H](C)C[C@H](N(C)C)[C@H]2OC(=O)NC)C(C)(O)C[C@@H](C)/C(=N\OCCCC2CCCCC2)[C@H](C)[C@@H](O)[C@]1(C)O | 20073 | 3.13 µg/mL |

Repeating the final 2 entries:

CC[C@H]1OC(=O)[C@H](C)[C@@H](O[C@H]2C[C@@](C)(OC)[C@@H](OC(C)=O)[C@H](C)O2)[C@H](C)[C@@H](O[C@@H]2O[C@H](C)C[C@H](N(C)C)[C@H]2OC(=O)NNCc2ccncc2)C(C)(O)C[C@@H](C)/C(=N\OCCCC2CCCCC2)[C@H](C)[C@@H](O)[C@]1(C)O ; strain or isolate: 20066 (clarithromycin-susceptible) ; result: 1.56 µg/mL
CC[C@H]1OC(=O)[C@H](C)[C@@H](O[C@H]2C[C@@](C)(OC)[C@@H](OC(C)=O)[C@H](C)O2)[C@H](C)[C@@H](OC2O[C@H](C)C[C@H](N(C)C)[C@H]2OC(=O)NC)C(C)(O)C[C@@H](C)/C(=N\OCCCC2CCCCC2)[C@H](C)[C@@H](O)[C@]1(C)O ; strain or isolate: 20073 ; result: 3.13 µg/mL